## Mutational scan of HIV-1 Vif (LAI) in cells with APOBEC3G

Data from the supplement of Langley et al. 2025, preprint, doi:10.1101/2025.10.20.683452.

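A pool of vif mutants was passaged twice, 72 h each, on SupT1 cells that express APOBEC3G. Frequencies after the second round, in three biological replicates, were compared with the merged pool after the first round. Changes do not touch integrase, since the pol overlap was removed.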

Protein: Vif of HIV-1 LAI (a laboratory-adapted subtype B strain). Residues 12-115 were scanned and are shown below; the first letter is residue 12.
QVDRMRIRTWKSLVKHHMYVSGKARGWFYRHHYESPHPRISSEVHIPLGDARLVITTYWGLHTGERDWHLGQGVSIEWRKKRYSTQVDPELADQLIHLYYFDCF

Values are log2 enrichment relative to wild type (0); lower means weaker defence against APOBEC3G and poorer growth. Substitutions are written as wild-type residue, site number, new residue. The median of three replicates is given, with the replicates in brackets. Input reads are the counts in the merged round-one pool, before selection. Replicates agree only moderately (rank correlation about 0.4-0.65); scores from under about 50 input reads tend to be too high.

substitution,input reads,median score
I87C,218,2.70 (0.41 / 2.70 / 2.97)
I87D,1097,-3.69 (-3.77 / -2.98 / -3.69)
I87E,490,-2.40 (-2.40 / 1.30 / -2.87)
I87F,481,-1.80 (-2.20 / 1.37 / -1.80)
I87G,702,-1.05 (-1.05 / 1.71 / -2.34)
I87K,482,-1.16 (-1.16 / 0.93 / -1.89)
I87L,889,-3.47 (-3.47 / -5.25 / -3.24)
I87N,449,-1.43 (-1.43 / -2.75 / -0.67)
I87P,807,-4.71 (-4.71 / -4.26 / -5.91)
I87Q,42,0.66 (0.39 / 5.66 / 0.66)
I87R,974,-4.31 (-2.91 / -4.43 / -4.31)
I87T,974,-0.74 (-0.59 / -0.74 / -1.29)
I87V,883,-1.84 (-3.25 / -1.83 / -1.84)
I87W,518,-1.90 (-0.37 / -1.90 / -3.16)
I87Y,445,-2.26 (-2.26 / 0.67 / -2.94)
E88A,45,2.34 (-0.05 / 3.83 / 2.34)
E88C,258,-1.67 (-1.67 / -2.25 / -1.59)
E88D,92,0.02 (0.02 / -0.61 / 0.69)
E88F,442,-1.40 (-2.05 / 1.39 / -1.40)
E88G,315,-0.37 (-0.37 / 2.22 / -1.17)
E88H,495,-3.98 (-3.98 / -2.34 / -4.46)
E88K,20,-1.71 (-1.71 / 2.72 / -2.18)
E88L,440,-3.15 (-2.05 / -5.34 / -3.15)
E88N,952,-0.77 (-0.77 / 0.53 / -2.59)
E88Q,1122,-3.58 (-3.58 / -0.91 / -3.71)
E88R,488,-1.04 (0.54 / -1.04 / -3.59)
E88S,264,-1.48 (-0.75 / -4.60 / -1.48)
E88T,64,4.30 (0.88 / 4.30 / 5.21)
E88V,31,1.29 (6.67 / 0.52 / 1.29)
E88W,404,-4.90 (-4.43 / -5.70 / -4.90)
W89C,99,-0.40 (-0.54 / -0.40 / 0.62)
W89E,775,-2.63 (-2.32 / -3.48 / -2.63)
W89H,417,-3.75 (-3.75 / -4.62 / -3.69)
W89I,528,-3.60 (-3.60 / -3.90 / -1.88)
W89K,520,-2.69 (-2.69 / -3.35 / -1.77)
W89L,540,0.16 (0.16 / 1.26 / -0.99)
W89N,303,1.85 (-0.85 / 1.85 / 4.99)
W89R,506,-3.32 (-3.18 / -4.66 / -3.32)
W89V,40,-1.55 (-2.70 / -0.63 / -1.55)
W89Y,154,-1.83 (-1.83 / -2.25 / -0.67)
R90A,296,-2.87 (-4.01 / -0.71 / -2.87)
R90E,890,-3.27 (-3.27 / -2.62 / -3.72)
R90F,3141,-1.11 (-1.11 / -2.66 / 1.47)
R90G,26,1.35 (-0.52 / 5.51 / 1.35)
R90H,334,-1.83 (-2.60 / 1.79 / -1.83)
R90I,401,-3.22 (-3.22 / 1.55 / -3.31)
R90K,1056,-1.81 (-1.81 / -0.57 / -1.81)
R90L,16,-1.85 (-1.42 / -1.85 / -1.88)
R90N,423,-2.20 (-2.20 / 1.01 / -4.97)
R90P,47,-2.64 (-2.95 / -2.64 / -1.82)
R90Q,1041,-3.46 (-1.21 / -3.74 / -3.46)
R90S,655,-2.49 (-2.49 / 1.71 / -3.10)
R90T,38,2.33 (5.76 / -0.27 / 2.33)
R90W,413,0.50 (0.50 / -0.73 / 0.68)
R90Y,48,0.47 (6.14 / -1.82 / 0.47)
K91A,443,-2.35 (-1.91 / -4.07 / -2.35)
K91D,461,-0.82 (-2.13 / 0.32 / -0.82)
K91E,379,-4.35 (-4.35 / -4.23 / -4.78)
K91F,597,-2.78 (-2.07 / -3.94 / -2.78)
K91G,40,4.88 (0.99 / 4.88 / 5.26)
K91H,381,-4.79 (-1.70 / -5.62 / -4.79)
K91I,381,-1.34 (-2.49 / -1.34 / 1.77)
K91N,932,-0.80 (-1.01 / 0.17 / -0.80)
K91P,668,-4.36 (-4.43 / -4.36 / -3.49)
K91Q,395,-2.44 (-2.83 / -2.44 / -2.18)
K91R,821,0.42 (-0.06 / 0.42 / 3.17)
K91T,351,-3.02 (-3.02 / -5.01 / -2.80)
K91V,373,-4.76 (-3.11 / -5.59 / -4.76)
K91Y,807,-2.50 (-2.63 / 2.02 / -2.50)
K92C,386,-1.54 (-1.68 / 0.49 / -1.54)
K92D,864,-1.80 (-1.80 / 1.41 / -2.43)
K92E,1110,-1.62 (-1.62 / -2.84 / -1.38)
K92F,48,-1.35 (-1.35 / -3.40 / 1.12)
K92G,478,-2.62 (-2.54 / -4.59 / -2.62)
K92H,29,1.84 (1.24 / 1.84 / 5.86)
K92I,488,-1.69 (-1.62 / -3.27 / -1.69)
K92L,351,-4.21 (-4.21 / -5.04 / -3.45)
K92N,524,-0.50 (2.88 / -1.16 / -0.50)
K92P,19,2.00 (2.08 / -2.09 / 2.00)
K92Q,84,0.35 (0.35 / 3.05 / -0.12)
K92R,336,-1.09 (-1.09 / 2.37 / -2.29)
K92V,345,-1.59 (-1.52 / -2.86 / -1.59)
K92W,810,-1.63 (-1.64 / 0.44 / -1.63)
K92Y,360,-2.66 (-2.66 / -3.63 / -0.19)

A selection of 8 entries from above:

substitution,input reads,median score
K91D,461,-0.82 (-2.13 / 0.32 / -0.82)
E88W,404,-4.90 (-4.43 / -5.70 / -4.90)
E88T,64,4.30 (0.88 / 4.30 / 5.21)
K91G,40,4.88 (0.99 / 4.88 / 5.26)
E88V,31,1.29 (6.67 / 0.52 / 1.29)
K91R,821,0.42 (-0.06 / 0.42 / 3.17)
K92P,19,2.00 (2.08 / -2.09 / 2.00)
K92F,48,-1.35 (-1.35 / -3.40 / 1.12)

The authors note that some positive scores may be noise, and some enriched variants failed when tested singly. Not every substitution is listed.